Compound potency records, mixed from different reports. Data source: NIAID ChemDB in PubChem.

All rows: whole-cell or culture tests; species: Candida albicans; endpoint: MFC

Blank or dashed fields: not listed here. Conditions beyond the fields shown may differ between rows.

structure,strain or isolate,value
CCC(C)CC(C)CCCCCCCCC(=O)NC1CCCNC(=O)[C@@H]2[C@@H](O)[C@@H](C)CN2C(=O)[C@H]([C@H](O)CC(N)=O)NC(=O)[C@H](CCc2ccc(O)cc2)NC(=O)[C@@H]2C[C@@H](O)CN2C(=O)[C@H]([C@@H](C)O)NC1=O,MY1208,0.5 µg/mL
NC(=NC1CCCC1)c1ccc(-c2ccc(-c3ccc(C(N)=NC4CCCC4)cc3)o2)cc1,Isolate 1 (strain 2-76),25 µg/mL
Cc1cc(-c2nn(CCO)c(C)c2N=O)no1,-,>200 µM
CCC(C)CC(C)CCCCCCCCC(=O)N[C@H]1C[C@@H](O)[C@@H](O)NC(=O)[C@@H]2[C@@H](O)CCN2C(=O)[C@H]([C@H](O)CCN(CC#N)CC#N)NC(=O)[C@H]([C@H](O)Cc2ccc(O)cc2)NC(=O)[C@@H]2C[C@@H](O)CN2C(=O)[C@H]([C@@H](C)O)NC1=O,MY1055,4 µg/mL
CCn1nc(C)c(N)c1-c1cc(C)on1,-,>200 µM
CCC(C)CC(C)CCCCCCCCC(=O)N[C@H]1C[C@@H](O)[C@@H](O)NC(=O)[C@@H]2[C@@H](O)CCN2C(=O)[C@H]([C@H](O)CCN(C)C)NC(=O)[C@H]([C@H](O)Cc2ccc(O)cc2)NC(=O)[C@@H]2C[C@@H](O)CN2C(=O)[C@H]([C@@H](C)O)NC1=O,MY1055,1 µg/mL
CC1CCCCC/C1=N\Nc1nc(-c2ccccc2)cs1,-,3.12 µg/mL
COC1CC2CCC(C)C(O)(O2)C(=O)C(=O)N2CCCCC2C(=O)OC(C(C)CC2CCC(O)C(OC)C2)CC(=O)C(C)/C=C(\C)[C@@](O)(c2ccc(C)s2)C(OC)C(=O)C(C)CC(C)/C=C/C=C/C=C/1C,WILD TYPE,>100 µg/mL
CCCn1nc(-c2cc(C)on2)c(N=O)c1C,-,22 µM
CC1CCC/C(=N\Nc2nc(-c3ccccc3)cs2)CC1,-,25 µg/mL
CCC(C)CC(C)CCCCCCCCC(=O)NC1CCCNC(=O)[C@@H]2[C@@H](O)CCN2C(=O)[C@H]([C@H](O)CC(N)=O)NC(=O)[C@H](C(O)[C@H](O)c2ccc(O)cc2)NC(=O)[C@@H]2C[C@@H](O)CN2C(=O)[C@H]([C@@H](C)O)NC1=O,MY1055,1 µg/mL
COC1CC2CCC(C)C(O)(O2)C(=O)C(=O)N2CCCCC2C(=O)OC(C(C)CC2CCC(O)C(OC)C2)CC(=O)C(C)/C=C(\C)C(O)C(OC)C(=O)C(C)C[C@](C)(N(O)C(=O)NN2CCCCC2)/C=C/C=C/C=C/1C,TOR1-1/TOR1,>100 µg/mL
Cc1cc(-c2c(N=O)c(C)nn2-c2ccccc2)no1,-,>200 µM
CCC(C)CC(C)CCCCCCCCC(=O)N[C@H]1C[C@@H](O)[C@@H](O)NC(=O)[C@@H]2[C@@H](O)CCN2C(=O)[C@H]([C@H](O)CCN=CNN)NC(=O)[C@H]([C@H](O)Cc2ccc(O)cc2)NC(=O)[C@@H]2C[C@@H](O)CN2C(=O)[C@H]([C@@H](C)O)NC1=O,MY1055,<0.06 µg/mL
N/C(=N/N=C1CCCC1)SCc1ccc(Cl)cc1Cl,-,>200 µg/mL
CCn1nc(C)c([N+](=O)[O-])c1-c1cc(C)on1,-,>200 µM
N/C(=N/N=C1CCCCCC1)SCc1ccccc1,-,>200 µg/mL
CCC(C)CC(C)CCCCCCCCC(=O)NC1CCCNC(=O)[C@@H]2[C@@H](O)[C@@H](C)CN2C(=O)[C@H]([C@H](O)CC(N)=O)NC(=O)[C@H](C(O)[C@H](O)c2ccc(O)cc2)NC(=O)[C@@H]2C[C@@H](O)CN2C(=O)[C@H]([C@@H](C)O)NC1=O,MY1055,2 µg/mL

For reference, 2 entries again:

structure,strain or isolate,value
NC(=NC1CCCC1)c1ccc(-c2ccc(-c3ccc(C(N)=NC4CCCC4)cc3)o2)cc1,Isolate 1 (strain 2-76),25 µg/mL
CCC(C)CC(C)CCCCCCCCC(=O)N[C@H]1C[C@@H](O)[C@@H](O)NC(=O)[C@@H]2[C@@H](O)CCN2C(=O)[C@H]([C@H](O)CCN(C)C)NC(=O)[C@H]([C@H](O)Cc2ccc(O)cc2)NC(=O)[C@@H]2C[C@@H](O)CN2C(=O)[C@H]([C@@H](C)O)NC1=O,MY1055,1 µg/mL